A mixed list of measured activities; the numbers were collected in NIAID ChemDB.

Shared fields: tests on isolated targets

Inhibition is in % at the dose shown (toxicity tests: loss of growth or viability).

{"smiles": "CCCCCCCCCCCCN1C(=O)N(c2ccc(Cl)cc2)C(=O)C[C@H]1C1OC2OC(C)(C)OC2[C@H]1OC", "species": "Mycobacterium aurum", "tested at": "100 µM", "read-out": "inhibition", "target": "Alpha-glucosidase", "value": "5.7%"}
{"smiles": "COc1c(N2CCN(Cn3c(O)c(N=NC(N)=S)c4cc(C)ccc43)C(C)C2)c(F)cc2c(=O)c(C(=O)O)cn(C3CC3)c12", "species": "Mycobacterium tuberculosis", "read-out": "IC50", "target": "Gyrase", "value": "10 µM"}
{"smiles": "C[C@]1(Cn2ccnn2)[C@H](C(=O)O)N2C(=O)C[C@H]2S1(=O)=O", "species": "Mycobacterium tuberculosis", "strain or isolate": "TB3", "read-out": "IC50", "target": "Beta-lactamase", "value": "1 µg/mL"}
{"smiles": "CCCCCCCCO[C@H]1O[C@H](CO[C@H]2O[C@H](CNS(=O)(=O)c3ccc(C)cc3)[C@@H](O)[C@@H]2O)[C@@H](O)[C@@H]1O", "species": "Mycobacterium tuberculosis", "strain or isolate": "H37Ra", "read-out": "IC50", "target": "Arabinofuranosyltransferase", "value": "1820 µM"}
{"smiles": "COCCN1CCN(C(=O)c2nc3cc(C(F)(F)F)cc([N+](=O)[O-])c3s2)CC1", "species": "Mycobacterium tuberculosis", "read-out": "IC50", "target": "Cytochrome P450 2C9", "read by": "fluorescence / absorbance", "value": ">100 µM"}
{"smiles": "CCCCN(C(=O)Nc1ccc(F)cc1)[C@@H](CC(=O)OCC)C1O[C@@H]2OC(C)(C)O[C@@H]2[C@H]1OC", "species": "Mycobacterium aurum", "tested at": "100 µM", "read-out": "inhibition", "target": "Alpha-glucosidase", "value": "85.6%"}
{"smiles": "O=C1NC(=O)/C(=C2\\CN(CC3CCCCC3)S(=O)(=O)c3ccccc32)S1", "species": "Mycobacterium smegmatis", "read-out": "IC50", "target": "N-acetyltransferase", "value": ">100 µM"}
{"smiles": "CCOC(=O)C[C@@H](C1O[C@@H]2OC(C)(C)O[C@@H]2[C@H]1Oc1ccccc1)N(C(=O)NCc1ccccc1)C1CC1", "species": "Mycobacterium aurum", "tested at": "100 µM", "read-out": "inhibition", "target": "Alpha-glucosidase", "value": "40.5%"}
{"smiles": "COc1c(N2CCN(CN3C(=O)C(=Nc4ccc(S(=O)(=O)Nc5ncccn5)cc4)c4ccccc43)C(C)C2)c(F)cc2c(=O)c(C(=O)O)cn(C3CC3)c12", "species": "Mycobacterium tuberculosis", "read-out": "IC50", "target": "Gyrase", "value": "8 µM"}
{"smiles": "CCn1cc(C(=O)Nc2cc(/C(C)=N\\N=C(N)N)cc(/C(C)=N/N=C(N)N)c2)c(=O)c2ccc(C)nc21", "species": "Mycobacterium tuberculosis", "read-out": "IC50", "target": "Protein kinase B", "read by": "kinase activity / radiometric", "value": "0.621 µM"}
{"smiles": "O=C1C=CC(O)(c2ccccc2)C=C1", "species": "Mycobacterium tuberculosis", "strain or isolate": "H37Rv", "read-out": "IC50", "target": "Thioredoxin reductase", "value": "971 µM"}
{"smiles": "CO[C@@H]1C2OC(C)(C)OC2OC1[C@@H]1CC(=O)N(c2ccc(Cl)cc2)C(=O)N1C1CC1", "species": "Mycobacterium aurum", "tested at": "100 µM", "read-out": "inhibition", "target": "Alpha-glucosidase", "value": "11.7%"}
{"smiles": "Cc1noc(C)c1-n1sc(=O)n(-c2ccc(F)cc2)c1=O", "species": "Mycobacterium smegmatis", "strain or isolate": "mc2155", "read-out": "IC50", "target": "Alanine racemase", "read by": "HPLC", "value": "68.01 µM"}
{"smiles": "C[C@H]1COC2(CCN(c3nc(=O)c4cc(C(F)(F)F)cc([N+](=O)[O-])c4s3)CC2)O1", "species": "Mycobacterium tuberculosis", "read-out": "IC50", "target": "Cytochrome P450 2C19", "read by": "fluorescence / absorbance", "value": "5.04 µM"}
{"smiles": "O=C1C=CC(O)(c2cc3ccccc3s2)C=C1", "species": "Mycobacterium tuberculosis", "strain or isolate": "H37Rv", "read-out": "IC50", "target": "Thioredoxin reductase", "value": "322 µM"}
{"smiles": "Cc1cc(=O)n([C@@H]2O[C@H](CO)C3CN=C(N)NC32)c(=O)[nH]1", "species": "Mycobacterium tuberculosis", "read-out": "Ki", "target": "Thymidine monophosphate kinase", "value": "46 µM"}
{"smiles": "CO[C@@H]1C2OC(C)(C)OC2OC1[C@@H]1CC(=O)N(Cc2ccccc2)C(=O)N1C1CC1", "species": "Mycobacterium aurum", "tested at": "100 µM", "read-out": "inhibition", "target": "Alpha-glucosidase", "value": "35.2%"}
{"smiles": "O=C(Nc1ccccc1)N1CCc2c(c(-c3ccccc3)nn2Cc2cn(-c3ccccc3I)nn2)C1", "species": "Mycobacterium tuberculosis", "read-out": "IC50", "target": "Pantothenate synthetase", "read by": "absorbance", "value": "3.92 µM"}
{"smiles": "Cc1cc(=O)n([C@@H]2O[C@H](CO)C3CNC(=S)OC32)c(=O)[nH]1", "species": "Mycobacterium tuberculosis", "read-out": "Ki", "target": "Thymidine monophosphate kinase", "value": "3.5 µM"}
{"smiles": "Cc1ccc(-n2sc(=O)n(Cc3ccc(F)cc3)c2=O)cc1", "species": "Mycobacterium smegmatis", "strain or isolate": "mc2155", "read-out": "IC50", "target": "Alanine racemase", "read by": "HPLC", "value": ">100 µM"}
{"smiles": "CCOC(=O)C[C@H](NC(=O)Nc1ccc(Cl)cc1)C1O[C@@H]2OC(C)(C)O[C@@H]2[C@H]1Oc1ccccc1", "species": "Mycobacterium aurum", "tested at": "100 µM", "read-out": "inhibition", "target": "Alpha-glucosidase", "value": "97.2%"}
{"smiles": "O=C(Nc1ccccc1)N1CCc2c(c(-c3ccccc3)nn2Cc2cn(-c3ccc(F)cc3)nn2)C1", "species": "Mycobacterium tuberculosis", "read-out": "IC50", "target": "Pantothenate synthetase", "read by": "absorbance", "value": "3.41 µM"}
{"smiles": "COc1c(N2CCN(Cn3c(O)c(N=NC(N)=S)c4ccccc43)C(C)C2)c(F)cc2c(=O)c(C(=O)O)cn(C3CC3)c12", "species": "Mycobacterium tuberculosis", "read-out": "IC50", "target": "Gyrase", "value": "5 µM"}
{"smiles": "CCCCCCCN1C(=O)N(Cc2ccccc2)C(=O)C[C@H]1C1OC2OC(C)(C)OC2[C@H]1OC", "species": "Mycobacterium aurum", "tested at": "100 µM", "read-out": "inhibition", "target": "Alpha-glucosidase", "value": "0.72%"}
{"smiles": "C/C(=N/N=C(N)N)c1cc(NC(=O)C(F)(F)C(F)(F)C(F)(F)C(F)(F)C(F)(F)C(F)(F)C(F)(F)C(F)(F)C(=O)Nc2cc(/C(C)=N\\N=C(N)N)cc(/C(C)=N\\N=C(N)N)c2)cc(/C(C)=N\\N=C(N)N)c1", "species": "Mycobacterium tuberculosis", "tested at": "10 µM", "read-out": "inhibition", "target": "Protein kinase B", "read by": "kinase activity / radiometric", "value": "97.6%"}
{"smiles": "CO[C@H]1/C=C/O[C@@]2(C)Oc3c(C)c(O)c4c(=O)c(c5oc6cc(N7CCN(CC(C)C)CC7)cc(=O)c6nc5c4c3=C2O)NC(=O)/C(C)=C\\C=C\\[C@H](C)[C@H](O)[C@@H](C)[C@@H](O)[C@@H](C)[C@H](OC(C)=O)[C@@H]1C", "species": "Mycobacterium fortuitum", "strain or isolate": "F-65", "read-out": "IC50", "target": "RNA polymerase", "value": ">10 µg/mL"}
{"smiles": "O=C1C=CC(O)(c2cccc3ccccc23)C=C1", "species": "Mycobacterium tuberculosis", "strain or isolate": "H37Rv", "read-out": "IC50", "target": "Thioredoxin reductase", "value": "366 µM"}
{"smiles": "O=C(Nc1ccccc1)N1CCc2c(c(-c3ccccc3)nn2Cc2cn(-c3ccc(Br)c(C(F)(F)F)c3)nn2)C1", "species": "Mycobacterium tuberculosis", "read-out": "IC50", "target": "Pantothenate synthetase", "read by": "absorbance", "value": "6.54 µM"}
{"smiles": "O=c1sn(-c2ccc([N+](=O)[O-])cc2Cl)c(=O)n1CC1CC1", "species": "Mycobacterium smegmatis", "strain or isolate": "mc2155", "read-out": "IC50", "target": "Alanine racemase", "read by": "HPLC", "value": "0.43 µM"}
{"smiles": "CC1(C)[C@H](C(=O)O)N2C(=O)C[C@H]2S1(=O)=O", "species": "Mycobacterium tuberculosis", "strain or isolate": "TB3", "read-out": "IC50", "target": "Beta-lactamase", "value": "0.75 µg/mL"}
{"smiles": "OCC1=C[C@H](N[C@H]2[C@@H](O)[C@@H](O)[C@@H](OC3[C@@H](O)[C@@H](O)[C@@H](O[C@H]4[C@@H](O)[C@@H](O)[C@H](O)O[C@@H]4CO)O[C@@H]3CO)O[C@@H]2CO)[C@H](O)[C@H](O)[C@@H]1O", "species": "Mycobacterium aurum", "tested at": "50 µM", "read-out": "inhibition", "target": "Alpha-glucosidase", "value": "68%"}
{"smiles": "COc1c(N2CCN(Cn3c(O)c(N=NC(=O)c4ccncc4)c4ccccc43)C(C)C2)c(F)cc2c(=O)c(C(=O)O)cn(C3CC3)c12", "species": "Mycobacterium tuberculosis", "read-out": "IC50", "target": "Gyrase", "value": "4 µM"}
{"smiles": "CC1(C)OC2OC([C@@H]3CC(=O)N(Cc4ccccc4)C(=O)N3C3CC3)[C@H](Oc3ccccc3)C2O1", "species": "Mycobacterium aurum", "tested at": "100 µM", "read-out": "inhibition", "target": "Alpha-glucosidase", "value": "61.8%"}
{"smiles": "Cn1c(=O)sn(-c2ccccc2)c1=O", "species": "Mycobacterium tuberculosis", "strain or isolate": "H37Rv", "read-out": "IC50", "target": "Alanine racemase", "read by": "HPLC", "value": "0.29 µM"}
{"smiles": "C/C(=N/NC(=N)N)c1cc(NC(=O)c2ccc(C(=O)Nc3cc(/C(C)=N\\NC(=N)N)cc(/C(C)=N/NC(=N)N)c3)s2)cc(/C(C)=N/NC(=N)N)c1", "species": "Mycobacterium tuberculosis", "tested at": "10 µM", "read-out": "inhibition", "target": "Protein kinase B", "read by": "kinase activity / radiometric", "value": "98.4%"}
{"smiles": "CCCCCCCCO[C@H]1O[C@H](CO[C@H]2O[C@H](CNC(=O)C(C)(C)C)[C@@H](O)[C@@H]2O)[C@@H](O)[C@@H]1O", "species": "Mycobacterium tuberculosis", "strain or isolate": "H37Ra", "read-out": "IC50", "target": "Arabinofuranosyltransferase", "value": "2490 µM"}
{"smiles": "O=C1C=CC(O)(c2ccc3ccccc3c2)C=C1", "species": "Mycobacterium tuberculosis", "strain or isolate": "H37Rv", "read-out": "IC50", "target": "Thioredoxin reductase", "value": "271 µM"}
{"smiles": "COC(=O)[C@@H](NC(=O)NCC(=O)N[C@H]1CCCCNC(=O)/C=C/[C@H](Cc2c[nH]c3ccccc23)NC1=O)C(C)C", "species": "Mycobacterium tuberculosis", "read-out": "IC50", "target": "Proteasome", "read by": "substrate cleavage / fluorescence", "value": "0.144 µM"}
{"smiles": "O=C(Nc1ccccc1)N1CCc2c(c(-c3ccccc3)nn2Cc2cn(-c3ccc(Br)cc3)nn2)C1", "species": "Mycobacterium tuberculosis", "read-out": "IC50", "target": "Pantothenate synthetase", "read by": "absorbance", "value": "2.46 µM"}
{"smiles": "NNC(=O)c1ccncc1", "species": "Mycobacterium tuberculosis", "strain or isolate": "H37RV (INH 10 ug/mL-R)", "read-out": "IC50", "target": "NADH oxidase", "value": ">1000 µM"}
{"smiles": "Cc1c(Br)c(=O)n(C2CCCC2)c2nc(Nc3ccc(N4CCN(C)CC4)cc3)ncc12", "species": "Mycobacterium tuberculosis", "tested at": "10 µM", "read-out": "inhibition", "target": "Protein kinase B", "read by": "kinase activity / radiometric", "value": "97.6%"}
{"smiles": "Cc1noc(C)c1-n1sc(=O)n(CC2CC2)c1=O", "species": "Mycobacterium tuberculosis", "strain or isolate": "H37Rv", "read-out": "IC50", "target": "Alanine racemase", "read by": "HPLC", "value": "1.46 µM"}
{"smiles": "COC1(c2nc3ccccc3s2)C=CC(=NS(=O)(=O)c2ccc(C)cc2)C=C1", "species": "Mycobacterium tuberculosis", "strain or isolate": "H37Rv", "read-out": "IC50", "target": "Thioredoxin reductase", "value": ">1000 µM"}
{"smiles": "CCCCCCCCO[C@H]1O[C@H](CO[C@H]2O[C@H](CNC(=O)c3ccccc3)[C@@H](O)[C@@H]2O)[C@@H](O)[C@@H]1O", "species": "Mycobacterium tuberculosis", "strain or isolate": "H37Ra", "read-out": "IC50", "target": "Arabinofuranosyltransferase", "value": "2250 µM"}
{"smiles": "Cc1cc(=O)n([C@@H]2O[C@H](CO)C3CNC(=O)NC32)c(=O)[nH]1", "species": "Mycobacterium tuberculosis", "read-out": "Ki", "target": "Thymidine monophosphate kinase", "value": "59 µM"}

Repeating the first 3 entries:

smiles,species,tested at,strain or isolate,read-out,target,read by,value
CCCCCCCCCCCCN1C(=O)N(c2ccc(Cl)cc2)C(=O)C[C@H]1C1OC2OC(C)(C)OC2[C@H]1OC,Mycobacterium aurum,100 µM,,inhibition,Alpha-glucosidase,,5.7%
COc1c(N2CCN(Cn3c(O)c(N=NC(N)=S)c4cc(C)ccc43)C(C)C2)c(F)cc2c(=O)c(C(=O)O)cn(C3CC3)c12,Mycobacterium tuberculosis,,,IC50,Gyrase,,10 µM
C[C@]1(Cn2ccnn2)[C@H](C(=O)O)N2C(=O)C[C@H]2S1(=O)=O,Mycobacterium tuberculosis,,TB3,IC50,Beta-lactamase,,1 µg/mL

An empty or dashed field is not shown. Conditions beyond the fields shown may differ between rows. ICn: concentration for n% inhibition.